Experimental data reported in PubChem BioAssay AID1159583 (ICCB-Longwood Screening Facility, Harvard Medical School, 2016).
Only a part is listed here, and it is no random draw. Calls of active or inactive are those of the source. Cut-off read from the data, not from the text of the source: active = fluorescence inhibition mostly above about 23% (no sharp cut-off); inactive = mostly below about 17%.

assay: hypoxia reporter signal reduction in M. tuberculosis – fluorescence, absorbance growth readout, primary screen (AID 1159583); conditions: M. tuberculosis hypoxia-regulated fluorescent reporter, hits give high values, concentration not given here

SMILES	fluorescence inhibition
COc1ccc(C(=O)NCC2(N3CCOCC3)CCCCC2)cc1OC	inactive: 11.4%
COc1cc(C(=O)NCC2(N3CCOCC3)CCCCC2)cc(OC)c1C	active: 32.8%
O=C(NCC1(N2CCOCC2)CCCCC1)c1cc(Br)ccc1Cl	inactive: 3.13%
CCc1cc(C(=O)NCC2(N3CCCCC3)CCCCC2)sc1C	inactive: 7.85%
O=C(OC1CN2CCC1CC2)C1c2ccccc2C=Cc2ccccc21 (configuration not stated)	inactive: 19.6%
CCOC(=O)N1CCC(Nc2ccc(C)cc2)CC1	inactive: 5.13%
N#Cc1ccc(C(=O)NCC2(N3CCCCC3)CCCCC2)cc1	inactive: 14.3%
CC(C)(C)OC(=O)N1CCC(N(C(=O)c2ccccc2)c2ccc(Cl)cc2)CC1	inactive: 6.12%
CN(C)C1(CNC(=O)c2cccc(C#N)c2)CCCCC1	inactive: 2.91%
CCCN1CCC(Nc2cc(OC)cc(OC)c2)CC1	inactive: 12.5%
Fc1ccccc1NC1CCN(Cc2ccccc2)CC1	inactive: -3.59%
Cc1ccc(C(=O)NCC2(N3CCCCC3)CCCCC2)o1	inactive: 2.5%
Cc1ccc(NC2(C#N)CCN(Cc3ccccc3)CC2)cc1	inactive: 9.35%
CC(=O)N(c1ccccc1)C1CCNCC1	inactive: 1.01%
COc1cc(OC)cc(C(=O)NCC2(N3CCCCC3)CCCCC2)c1	inactive: -3.42%
CN(C)c1ccc(C(=O)NCC2(N3CCCCC3)CCCCC2)cc1	inactive: 7.41%
Cn1c(=O)[nH]cc(N(CCCl)CCCl)c1=O	inactive: 8.11%
O=C(NCC1(N2CCCCC2)CCCCC1)c1ccco1	inactive: 6.3%
CCN1CCC(Nc2cccc(F)c2)CC1	inactive: -2.08%
Cc1ccccc1NC1(C#N)CCN(Cc2ccccc2)CC1	inactive: 6.22%
O=C(O)C1(Nc2ccccc2)CCN(Cc2ccccc2)CC1	inactive: 9.34%
CC(C)(C)OC(=O)N1CCC(Nc2ccccc2)CC1	inactive: 7.41%
CCCOc1ccc(C(=O)NCC2(N(C)C)CCCCC2)cc1	inactive: 7.39%

SMILES	fluorescence inhibition
CN1CCC(Nc2ccc(F)c(Cl)c2)CC1	inactive: -0.415%
CCOc1ncccc1C(=O)NCC1(N2CCOCC2)CCCCC1	inactive: 6.98%
CN1CCC(Nc2ccc(Cl)cc2)CC1	inactive: 12.3%
COc1cccc(C(=O)N(c2cc(C)cc(C)c2)C2CCN(C(=O)OC(C)(C)C)CC2)c1	inactive: 5.83%
COc1cc(OC)cc(C(=O)NCC2(N3CCOCC3)CCCCC2)c1	inactive: 4.46%
Cc1cccc(NC2(C#N)CCN(Cc3ccccc3)CC2)c1	inactive: 10.8%
CSc1ccccc1C(=O)NCC1(N2CCCCC2)CCCCC1	inactive: 7.12%
COc1ccc(C(=O)NCC2(N3CCCCC3)CCCCC2)c(OC)c1OC	inactive: -12.7%
CC(C)(C)OC(=O)N1CCC(N(C(=O)c2ccccc2)c2ccc(F)cc2)CC1	inactive: 13.5%
COc1ccc(C(=O)NCC2(N3CCCCC3)CCCCC2)cc1	inactive: 3.13%
O=C(NCC1(N2CCCCC2)CCCCC1)c1cccs1	inactive: -7.6%
O=C(NCC1(N2CCCCC2)CCCCC1)c1ccc(=O)[nH]c1	inactive: -0.974%
COc1ccc(Cl)cc1C(=O)NCC1(N2CCOCC2)CCCCC1	inactive: -8.21%
O=C(NCC1(N2CCCCC2)CCCCC1)c1ccc(Cl)s1	inactive: 11.4%
N#CC1(Nc2ccccc2)CCN(Cc2ccccc2)CC1	inactive: -3.91%
O=C(OC1CN2CCC1CC2)C1c2ccccc2Oc2ccccc21 (configuration not stated)	inactive: 27.7%
CCOC(=O)N1CCC(Nc2ccc(OC)cc2)CC1	inactive: 4.06%
Cc1cc(C)cc(N(C(=O)c2ccccc2)C2CCN(C(=O)OC(C)(C)C)CC2)c1	inactive: -2.59%
O=C(NCC1(N2CCCCC2)CCCCC1)c1ccc(Cl)nc1	inactive: -4.55%
CCOC(=O)N1CCC(Nc2ccc(F)cc2)CC1	inactive: 5.03%
COc1ccc(NC2CCN(CCc3ccccc3)CC2)c(OC)c1	inactive: 11.9%
CCCCOc1ccc(C(=O)NCC2(N3CCOCC3)CCCCC2)cc1	inactive: 4.61%
O=P1(N(CCCl)CCCl)SCCCS1	inactive: 9%

SMILES	fluorescence inhibition
O=C(NCC1(N2CCCCC2)CCCCC1)c1ccc(F)cc1	inactive: -4.13%
CCOc1ccc(C)cc1CN(CCCl)CCCl	inactive: -2.76%
CCOC(=O)N1CCC(Nc2cccc(C)c2)CC1	inactive: 12.3%
COc1cc(C(=O)NCC2(N(C)C)CCCCC2)ccc1OC(F)F	inactive: -6.19%
N#CC1(Nc2ccccc2)CCN(CCc2ccccc2)CC1	inactive: 3.52%
CCN1CCC(Nc2ccc(Cl)cc2)CC1	inactive: 3.78%
O=C(NCC1(N2CCCCC2)CCCCC1)c1cccc([N+](=O)[O-])c1	inactive: 15.3%
CSc1ccc(C(=O)NCC2(N3CCOCC3)CCCCC2)cc1	inactive: 2.62%
O=C(NCC1(N2CCCCC2)CCCCC1)c1ccc(OC(F)F)cc1	inactive: 9.8%
COc1cc(C(=O)NCC2(N3CCCCC3)CCCCC2)ccc1OC(F)F	inactive: 11%
COc1ccc(NC2CCN(C(=O)OC(C)(C)C)CC2)cc1	inactive: 1.52%
CC(C)c1ccc(C(=O)NCC2(N3CCOCC3)CCCCC2)cc1	inactive: 13.3%
CN1CCN(CCOC(=O)C(O)(c2ccccc2)c2ccccc2)CC1	inactive: 5.39%
O=C(NCC1(N2CCCCC2)CCCCC1)c1cccc(C(F)(F)F)c1	inactive: -0.529%
O=C(NCC1(N2CCOCC2)CCCCC1)c1cc(F)c(F)cc1Cl	inactive: -0.803%
COc1cc(OC)c(C(=O)NCC2(N(C)C)CCCCC2)cc1OC	inactive: -0.881%
CC(C)c1ccc(NC2CCN(C(=O)OC(C)(C)C)CC2)cc1	inactive: 8.27%
CN(C)c1cccc(C(=O)NCC2(N3CCCCC3)CCCCC2)c1	inactive: 6.77%
COc1ccc(CN(CCCl)CCCl)cc1Cl	inactive: 15.9%
CCCOc1ccc(C(=O)NCC2(N(C)C)CCCCC2)cc1OC	inactive: 2.61%
O=C(NCC1(N2CCCCC2)CCCCC1)c1cncc(Br)c1	inactive: -6.7%
